Reference: patent publication US20230357139A1, “SMALL MOLECULE INHIBITORS OF BACTERIAL TOXINS” (Artizan Biosciences, Inc., priority 2020, published 2023)

Sequences of proteins named here, by UniProt entry; tags and fusion partners are left off. Residues count along the entry.
UniProt Q833V7, 193-510 limits assumed: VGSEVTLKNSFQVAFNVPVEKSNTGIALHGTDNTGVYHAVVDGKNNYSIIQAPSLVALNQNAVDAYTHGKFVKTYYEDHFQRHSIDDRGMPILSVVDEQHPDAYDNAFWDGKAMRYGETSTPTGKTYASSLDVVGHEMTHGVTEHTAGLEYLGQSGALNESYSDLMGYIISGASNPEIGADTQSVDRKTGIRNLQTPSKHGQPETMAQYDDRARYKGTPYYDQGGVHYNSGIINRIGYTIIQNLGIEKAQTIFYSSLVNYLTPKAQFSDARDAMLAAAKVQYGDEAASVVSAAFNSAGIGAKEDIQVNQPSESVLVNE

Molecular target: Gelatinase E (GelE) (Enterococcus faecalis (strain ATCC 700802 / V583), UniProt Q833V7)
Assay: Gelatinase E activity assay (FRET peptide substrate)
Conditions: read-out: GelE IC50; Table 11
Method: Gelatinase E (Gel E) was purified from bacterial culture supernatant from E. faecalis. E. faecalis was cultured aerobically in Todd Hewitt Broth overnight at 37° C. Nucleic acid was precipitated with 0.9% protamine solution, followed by protein precipitation with ammonium sulfate. Resuspended protein pellet was further subjected to purification using FPLC (phenyl Sepharose column). Fractions with gelatinase activity as determined by casein agar assay were pooled and further concentrated.
Different concentrations of test compound were incubated with purified GelE and FRET-based peptide substrate (390 MMP FRET Substrate 1; Anaspec AS-27077) in assay buffer at room temperature for 30 minutes. The fluorescence signal was determined by a plate reader.

With COc1ccc(S(=O)(=O)N(CC(=O)NO)CC(C)C)nc1 the IC50 was 299 nM.
For CSc1ccc(S(=O)(=O)N(CC(N)=O)CC(C)C)cc1, the IC50 was greater than 100000 nM.
